Reference: patent US20120264793A1, “Pharmaceutical Use of 2',2-Bis-Thiazole Non-Nucleoside Compounds as Hepatitis C Virus Inhibitor” (Shanghai Institute of Materia Medica, Chinese Academy of …, priority 2009, published 2012)
The index is printed as in the source, without its formula.

What follows are molecules tested on HCV (J399E) inserted with enhanced green fluorescent protein (EGFP). Conditions: not given.
Type: cell-based, Hepatitis C Virus
Method: The in vitro anti-HCV activity assay of the 2′,2-bis-thiazole non-nucleoside compounds at cellular level was performed by using an anti-HCV activity assay protocol recognized by one skilled in the art.
The variation of the green fluorescence intensity was recorded on a microplate reader and cytotoxicity was measured at the same time, so as to evaluate the influence of the compound on the replication activity of HCV.
Compounds to be tested were dissolved in DMSO to prepare a stock solution before the test. Upon using, the stock solution was diluted to a desired concentration with DMEM (Dulbecco's Modified Eagle Media, purchased from GibcoBRL company (Life Technologies, Grand Island, N.Y., USA)) containing 10% FBS (fetal bovine serum, purchased from Hyclone company (Logan, Utah, USA)).
Positive control: ribavirin (purchased from Sigma/Aldrich). It was dissolved in DMSO to prepare a stock solution and stored at −20° C. before use, and diluted to a desired concentration upon using.
Huh7.5.1 cells (10% FBS, DMEM) at 10^5 cells/ml were inoculated on a 96-well plate (Costar 3904) with 100 μl per well. 24 h later, the supernatant of the culture media was sucked out, and 50 μl of virus supernatant with MOI=0.1 was added. 8 h later, 50 μl of the testing compound solution was added and 100 μl of culture media was supplemented. After incubation for 72 h, the supernatant was sucked out, and read on a fluorescent microplate reader (Ex=488 nm, Em=516 nm). Then each well was added with 20 μl of MTT (5 mg/ml) and additional 50 μl of culture media. 4 h later, 100 μl of MTT lysis solution was added. 6 h later, reading was performed at a wavelength of 570 nm.
For `CNC(=O)c1nc(-c2nccs2)sc1CC(C)C` [Compound C281], the “SI (bioactivity selective index)” value was >7.4.
With `O=C(O)c1nc(-c2nccs2)sc1Cc1ccccc1` [Compound C302] the “SI (bioactivity selective index)” value was 2.6.
`CCOC(=O)CCc1nc(-c2nccs2)sc1CC(C)C` [Compound C324-5] was tested, and the “SI (bioactivity selective index)” value was >2.7.
For `CCC(=O)c1nc(-c2nccs2)sc1CC(C)C` [Compound C280-4], the “SI (bioactivity selective index)” value was >11.2.
`CC(C)Cc1sc(-c2nccs2)nc1C(=O)Nc1ccccc1` [Compound C343] was tested, and the “SI (bioactivity selective index)” value was >5.2.
In the case of `CCOC(=O)/C=C/c1nc(-c2nccs2)sc1CC(C)C` [Compound C322-2], the “SI (bioactivity selective index)” value is reported as >10.2.

Same assay, conditions: from CC50 and IC50 in Huh7.5.1 cells; SI greater than 2 means effective
For `CC(C)Cc1sc(-c2nccs2)nc1C(N)=O` [Compound C267], the “SI (bioactivity selective index)” value was >20.4.
